# Biological target: γ-tubulin small complex (γ-TuSC) from C. albicans: His-Spc97, His-Spc98, γ-tubulin (Tub4) (C. albicans) (UniProt Q59PZ2)
# Experiment: MST
# Details: domain or fragment
substance,measurement,value
"GST-CM1^231-268,3R (GST-Spc72^231-268 L243R/I247R/L254R) (from UniProt Q5AGV5 231-268)",Kd,418 nM

# Source: paper PMC11701102, “Structural insights into the interplay between microtubule polymerases, γ-tubulin complexes and their receptors” (Nature Communications, 2025)
